Pooled drug test results. Numbers come from NIAID ChemDB, via PubChem.

Common to all: whole-cell or culture tests; species: Herpes simplex virus 2; endpoint: EC50

Conditions beyond the fields shown may differ between rows. ECn: concentration that inhibits the pathogen or its effect by n%.

{"SMILES": "[N-]=[N+]=NC(CBr)c1cc([C@H]2C[C@H](O)[C@@H](CO)O2)c(F)cc1F", "strain": "G", "read by": "cytopathic effect", "cell line": "E6SM", "value": ">400 µg/mL"}
{"SMILES": "Nc1ccn(C[C@@H](CO)OCP(=O)(O)O)c(=O)n1", "strain": "Heeter", "read by": "plaque count", "cell line": "HFF", "value": "3 µg/mL"}
{"SMILES": "Nc1nc2c(ncn2CC(CO)CCO)c(=O)[nH]1", "strain": "91075", "read by": "plaque count", "cell line": "HEL", "value": "23 µM"}
{"SMILES": "Nc1ccn([C@@H]2O[C@H](CO)[C@@H](O)[C@@H]2O)c(=O)n1", "strain": "MS", "read by": "plaque count", "cell line": "VERO", "value": "0.2 µM"}
{"SMILES": "OC[C@H]1O[C@@H](c2cc(/C=C/Br)c(F)cc2F)C[C@@H]1O", "strain": "196", "read by": "cytopathic effect", "cell line": "E6SM", "value": ">400 µg/mL"}
{"SMILES": "Nc1nc2c(ncn2CC[C@H](O)CO)c(=O)[nH]1", "strain": "91075", "read by": "plaque count", "cell line": "VERO", "value": "20 µM"}
{"SMILES": "Cn1cc(C(=O)NCc2ccc(Cl)cc2)c(=O)c2cc(CN3CCOCC3)ccc21", "strain": "186", "read by": "plaque count", "cell line": "VERO", "value": "2.3 µM"}
{"SMILES": "Nc1nc2c(ncn2CC[C@@H](O)CO)c(=O)[nH]1", "strain": "72", "read by": "plaque count", "cell line": "VERO", "value": "4 µM"}
{"SMILES": "Cn1cc(C(=O)NCc2ccc(Cl)cc2)c(=O)c2cc(CN3CCOCC3)ccc21", "strain": "MS (WILD TYPE)", "read by": "plaque count", "cell line": "HFF", "value": "2.6 µM"}
{"SMILES": "Cc1cn([C@@H]2O[C@H](CO)[C@H]2CO)c(=O)[nH]c1=O", "strain": "X-79", "read by": "plaque count", "cell line": "HFF", "value": "1 µg/mL"}
{"SMILES": "Nc1nc2c(ncn2COCCO)c(=O)[nH]1", "strain": "T43648 (acyclovir-susceptible)", "read by": "cytopathic effect", "cell line": "HFF", "value": "2.5 µg/mL"}
{"SMILES": "OC[C@H]1O[C@@H](c2cc(C#CBr)c(F)cc2F)C[C@@H]1O", "strain": "196", "read by": "cytopathic effect", "cell line": "E6SM", "value": ">400 µg/mL"}
{"SMILES": "Nc1nc2c(ncn2CC[C@@H](O)CO)c(=O)[nH]1", "strain": "91075 (acyclovir-resistant)", "read by": "plaque count", "cell line": "VERO", "value": ">250 µM"}
{"SMILES": "O=c1[nH]c(=O)n([C@H]2C[C@H](O)[C@@H](CO)O2)cc1I", "strain": "MS-M1", "read by": "plaque count", "cell line": "VERO", "value": "6.1 µM"}
{"SMILES": "O=C(O)CP(=O)(O)O", "strain": "Heeter", "read by": "plaque count", "cell line": "MEF", "value": "13.5 µg/mL"}
{"SMILES": "O=C(NCc1ccc(Cl)cc1)c1cn2c3c(cc(CN4CCOCC4)cc3c1=O)OC(c1cccnc1)C2", "strain": "L6191456 ACV resistant", "read by": "plaque count", "cell line": "HFF", "value": ">18 µM"}

For reference, 2 entries again:

Nc1nc2c(ncn2CC[C@@H](O)CO)c(=O)[nH]1 ; strain: 91075 (acyclovir-resistant) ; read by: plaque count ; cell line: VERO ; value: >250 µM
OC[C@H]1O[C@@H](c2cc(C#CBr)c(F)cc2F)C[C@@H]1O ; strain: 196 ; read by: cytopathic effect ; cell line: E6SM ; value: >400 µg/mL